Read-outs that look alike come from different tables or passages of the source.
Columns and labels:
SHIV162P3 = format: cell-based, SHIV; conditions: Table 2; B-R5; 10^-3 MOI, TZM-bl cells, 48 h; mean of at least 2 independent experiments, triplicates
Description: (§1) The IC50 of the various mCD4-conjugates were measured in TZM-bl cells (NIH AIDS Reagent Program, Germantown, MD 20874, US). This cell line expresses high densities of CD4, CCR5 and CXCR4. It contains a luciferase reporter gene under control of HIV LTR, which will be transcribed and translated into luciferase protein, if the cells get infected with HIV and start producing Tat. Briefly, 50 μl of TZM-bl cells (1 × 10^5 cells/mL) supplemented with 30 μg/mL DEAE dextran were incubated with a 50 μl of a 10-fold serial dilution of the compounds under investigation in 96-well flat bottom plates, prior to inoculation with 50 μl of various viruses (see Tables & and 2; 50, 100 or 200 TCID50 was used depending on the virus). As a positive control, 50 μl of compound-free medium was used and as a negative control, 100 μl of medium was added to 100 μl of TZM-bl cells. All conditions were done in triplicates. The plates were incubated for 48 hours (37 °C, 5% CO2). Subsequently, 120 μL of supernatants were removed, 75 μl of the luciferase substrate Steadylite (Perkin Elmer, Life Sciences, Zaventem, Belgium) were added to the wells and the plates were incubated at room temperature on an orbital shaker for 10 minutes. Next, the luciferase activity was measured using a TriStar LB941 luminometer (Berthold Technologies GmbH & Co. KG., Bad Wildbad, Germany) and expressed in relative light units (RLU) as a percentage of positive control wells. IC50 were calculated in GraphPad Prism 5.03 using non-linear regression (GraphPad Software, San Diego, CA, USA).

HIV-1 pTHRO.c/2626 = format: cell-based; conditions: Table 2; T/F B-R5; 10^-3 MOI, TZM-bl cells, 48 h; mean of at least 2 independent experiments, triplicates
Description: as §1

HIV-1 pZM247Fv2 = format: cell-based; conditions: Table 2; T/F C-R5; 10^-3 MOI, TZM-bl cells, 48 h; mean of at least 2 independent experiments, triplicates
Description: as §1

HIV-1 p246F10 = format: cell-based; conditions: Table 2; T/F C-R5; 10^-3 MOI, TZM-bl cells, 48 h; mean of at least 2 independent experiments, triplicates
Description: as §1

HIV-1 pWITO.c/2474 = format: cell-based; conditions: Table 2; T/F B-R5; 10^-3 MOI, TZM-bl cells, 48 h; mean of at least 2 independent experiments, triplicates
Description: as §1

HIV-1 Ca10-3 (CRF01) = format: cell-based; conditions: Table 2; AE-X4; 10^-3 MOI, TZM-bl cells, 48 h; mean of at least 2 independent experiments, triplicates
Description: as §1

HIV-1 IIIB = format: cell-based; conditions: Table 2; B-X4; 10^-3 MOI, TZM-bl cells, 48 h; mean of at least 2 independent experiments, triplicates
Description: as §1

HIV-1 VI1888 (CRF01) = format: cell-based; conditions: Table 2; AE-R5; 10^-3 MOI, TZM-bl cells, 48 h; mean of at least 2 independent experiments, triplicates
Description: as §1

HIV-1 VI824 = format: cell-based; conditions: Table 2; D-R5; 10^-3 MOI, TZM-bl cells, 48 h; mean of at least 2 independent experiments, triplicates
Description: as §1

HIV-1 MN = format: cell-based; conditions: Table 2; B-X4; 10^-3 MOI, TZM-bl cells, 48 h; mean of at least 2 independent experiments, triplicates
Description: as §1

HIV-1 MP568 (CRF02) = format: cell-based; conditions: Table 2; AG-R5; 10^-3 MOI, TZM-bl cells, 48 h; mean of at least 2 independent experiments, triplicates
Description: as §1

HIV-1 VI820 = format: cell-based; conditions: Table 2; A-X4R5; 10^-3 MOI, TZM-bl cells, 48 h; mean of at least 2 independent experiments, triplicates
Description: as §1

HIV-1 SF162 = format: cell-based; conditions: Table 2; B-R5; 10^-3 MOI, TZM-bl cells, 48 h; mean of at least 2 independent experiments, triplicates
Description: as §1

HIV-1 pREJO.c/2864 cl2 = format: cell-based; conditions: Table 2; T/F B-R5; 10^-3 MOI, TZM-bl cells, 48 h; mean of at least 2 independent experiments, triplicates
Description: as §1

HIV-1 VI829 = format: cell-based; conditions: Table 2; C-R5; 10^-3 MOI, TZM-bl cells, 48 h; mean of at least 2 independent experiments, triplicates
Description: as §1

HIV-1 Bal = format: cell-based; conditions: Table 2; B-R5; 10^-3 MOI, TZM-bl cells, 48 h; mean of at least 2 independent experiments, triplicates
Description: as §1

TZM-bl cells = test: WST-1 cytotoxicity assay; format: cell-based; conditions: Table 2, 50% cytotoxic concentration, WST-1, 48 h
Description: The water soluble tetrazolium-1 (WST-1) cell proliferation assay is based on the cleavage of the tetrazolium salt WST-1 to a formazan dye by a complex cellular mechanism. Because this bioreduction is dependent on the glycolytic production of NAD(P)H in viable cells, the amount of formazan dye formed is correlates directly to the number of viable cells in a culture. Quantification is done by measuring absorbance at 450 nm in a multiwell plate reader. TZMbl cells (10^4 cells/well) were plated in a 96-well plate and a serial dilution of compound was added. 48 h later, cell proliferation reagent was added and cell viability was measured compared to untreated control cultures. Cell viability was plotted against the compound concentration and non-linear regression analysis was performed to calculate the 50% cytotoxic concentration (CC50).

HIV-1 NL4.3 = format: cell-based; conditions: primary CD4 T cells infected with NL4.3, co-culture with autologous target cells, Gag+ targets by flow cytometry
Description: Primary CD4^+ T cells were purified from human peripheral blood by positive selection (Miltenyi). About 98% of cells were CD4^+CD3^+. For activation, primary T cells were treated with PHA (1 μg/ml) for 24 h and then cultured with IL-2 (50 IU/ml) for 3–5 days before use. Primary cells were infected with HIV-1 NL4-3 and NLAD8 as described. Donor cells were used a few days later, when about 20% of the cells were Gag^+. Target cells were labeled with FarRed (2.5 μM; Molecular Probes). Donors were preincubated 1 h with the indicated doses of compounds. Donor and target cells were then mixed at a 1:2 ratio in 96-well plates at a final a concentration of 1.5 × 10^6/ml in 200 μl, in duplicates. After 48 or 72 h, cells were stained for intracellular Gag (KC57 mAb, Coulter) and analyzed by flow cytometry. When used, mCD4 or mCD4-conjugates were added 1 h before coculture. Measurement of the levels of Env epitopes at the surface of infected cells with 3BNC117 was performed by flow cytometry as previously described.

[1] = system: HIV strains from different subtypes; test: TZM-bl antiviral assay, whole panel of strains; format: cell-based, HIV-1; conditions: average over the strains tested, TZM-bl cells
Description: as §1, with “Subsequently, 120 μL of supernatants were removed, 75 μl of the luciferase substrate Steadylite (Perkin Elmer, Life Sciences, Zaventem, Belgium) were added to the wells and the plates were incubated at room temperature on an orbital shaker for 10 minutes.” left out

[2] = 48 h, read-out: IC50 (nM) 48h, cell-cell transmission
[3] = 72 h, read-out: IC50 (nM) 72h, cell-cell transmission

| Structure (SMILES) | IC50 (SHIV162P3) [nM] | IC50 (HIV-1 pTHRO.c/2626) [nM] | IC50 (HIV-1 pZM247Fv2) [nM] | IC50 (HIV-1 p246F10) [nM] | IC50 (HIV-1 pWITO.c/2474) [nM] | IC50 (HIV-1 Ca10-3 (CRF01)) [nM] | IC50 (HIV-1 IIIB) [nM] | IC50 (HIV-1 VI1888 (CRF01)) [µM] | IC50 (HIV-1 VI824) [nM] | IC50 (HIV-1 MN) [nM] | IC50 (HIV-1 MP568 (CRF02)) [nM] | IC50 (HIV-1 VI820) [nM] | IC50 (HIV-1 SF162) [nM] | IC50 (HIV-1 pREJO.c/2864 cl2) [nM] | IC50 (HIV-1 VI829) [nM] | IC50 (HIV-1 Bal) [nM] | CC50 (TZM-bl cells) [µM] | IC50 (HIV-1 NL4.3; [2]) [nM] | IC50 (HIV-1 NL4.3; [3]) [nM] | average decrease in IC50 relative to parent mCD4.1 [1] [times] |
| --- | --- | --- | --- | --- | --- | --- | --- | --- | --- | --- | --- | --- | --- | --- | --- | --- | --- | --- | --- | --- |
| CC(C)C[C@@H]1NC(=O)CNC(=O)[C@H](CC(C)C)NC(=O)[C@H](CO)NC(=O)[C@H](CCCNC(=N)N)NC(=O)[C@@H]2CSSC[C@@H](C(=O)N[C@H](C(N)=O)C(C)C)NC(=O)[C@H](C)NC(=O)[C@@H]3CSSC[C@H](NC(=O)[C@H](CCCCNC(=O)CCOCCOCCNC(=O)CCN4C(=O)CC(SCCC(=O)NCCCC(=O)N[C@@H](CO)C(=O)N[C@@H](Cc5ccc(OS(=O)(=O)O)cc5)C(=O)N[C@@H](CC(=O)O)C(=O)N[C@@H](Cc5ccc(OS(=O)(=O)O)cc5)C(=O)N[C@@H](CO)C(=O)N[C@@H](Cc5ccc(OS(=O)(=O)O)cc5)C(=O)N[C@@H](CC(=O)O)C(=O)N[C@@H](Cc5ccc(OS(=O)(=O)O)cc5)C(=O)N[C@@H](CO)C(=O)N[C@@H](Cc5ccc(OS(=O)(=O)O)cc5)C(=O)N[C@@H](CC(=O)O)C(=O)N[C@@H](Cc5ccc(OS(=O)(=O)O)cc5)C(=O)N[C@@H](CO)C(=O)O)C4=O)NC(=O)[C@H](Cc4c[nH]cn4)NC(=O)[C@H](CC(C)C)NC(=O)[C@H](CC(N)=O)NC(=O)CCSSC[C@H](NC(=O)[C@H](CCCNC(=N)N)NC(=O)CNC(=O)[C@H](CC(C)C)NC1=O)C(=O)N[C@@H](C)C(=O)N1CCC[C@@H]1C(=O)N[C@@H]([C@@H](C)O)C(=O)N[C@@H](Cc1ccc(OCC4CCCCC4)cc1)C(=O)N3)C(=O)N[C@@H](CCC(N)=O)C(=O)N[C@@H](CC(C)C)C(=O)N[C@@H](CCCNC(=N)N)C(=O)N2 (some centres unmarked) [mCD4.3-PS1] | 1.4 | 6.4 | 192 | 33 | 1.5 | 0.076 | 0.0025 | 1.21 | 0.7 | 0.026 | 4.2 | 0.024 | 0.0075 | 0.28 | 3.6 | 0.031 | >50 | 0.2 | 0.3 | – |
| CC(C)C[C@@H]1NC(=O)CNC(=O)[C@H](CC(C)C)NC(=O)[C@H](CO)NC(=O)[C@H](CO)NC(=O)[C@@H]2CSSC[C@@H](C(=O)N[C@H](C(N)=O)C(C)C)NC(=O)[C@H](C)NC(=O)[C@@H]3CSSC[C@H](NC(=O)[C@H](CCCCN)NC(=O)[C@H](Cc4c[nH]cn4)NC(=O)[C@H](CC(C)C)NC(=O)[C@H](CC(N)=O)NC(=O)CCSSC[C@H](NC(=O)[C@H](CCCNC(=N)N)NC(=O)CNC(=O)[C@H](CC(C)C)NC1=O)C(=O)N[C@@H](C)C(=O)N1CCC[C@@H]1C(=O)N[C@@H]([C@@H](C)O)C(=O)N[C@@H](Cc1ccc(OCC4CCCCC4)cc1)C(=O)N3)C(=O)N[C@@H](CCC(N)=O)C(=O)N[C@@H](CC(C)C)C(=O)N[C@@H](CCCNC(=N)N)C(=O)N2 [mCD4.2] | 69 | 19 | > 1000 | 718 | 184 | 4.7 | 0.22 | 5.38 | 56 | 0.59 | 155 | 6.1 | 1.3 | 76 | 512 | 2 | 24.036 | 5.9 | 2.8 | 80 |
| CC(C)C[C@@H]1NC(=O)CNC(=O)[C@H](CC(C)C)NC(=O)[C@H](CO)NC(=O)[C@H](CCCNC(=N)N)NC(=O)[C@@H]2CSSC[C@@H](C(=O)N[C@H](C(N)=O)C(C)C)NC(=O)[C@H](C)NC(=O)[C@@H]3CSSC[C@H](NC(=O)[C@H](CCCCN)NC(=O)[C@H](Cc4c[nH]cn4)NC(=O)[C@H](CC(C)C)NC(=O)[C@H](CC(N)=O)NC(=O)CCSSC[C@H](NC(=O)[C@H](CCCNC(=N)N)NC(=O)CNC(=O)[C@H](CC(C)C)NC1=O)C(=O)N[C@@H](C)C(=O)N1CCC[C@@H]1C(=O)N[C@@H]([C@@H](C)O)C(=O)N[C@@H](Cc1ccc(OCC4CCCCC4)cc1)C(=O)N3)C(=O)N[C@@H](CCC(N)=O)C(=O)N[C@@H](CC(C)C)C(=O)N[C@@H](CCCNC(=N)N)C(=O)N2 [mCD4.3] | 29 | 15 | > 1000 | 510 | 178 | 3.1 | 0.16 | 4.51 | 39 | 0.37 | 204 | 4.2 | 0.66 | 46 | 221 | 2.3 | 15.54 | 6.6 | 3.2 | 115 |
